The data set concerns MucR (Brucella abortus). As to the kind of experiment: EMSA. The settings on record: 25 mM HEPES pH 7.9, 50 mM KCl, 6.25 mM MgCl2, 5% glycerol, recombinant protein. (A gel shift assay detects complexes by their altered migration in electrophoresis.)

Construct, isoform or probe ends are uncertain for at least one entry. At least one verdict was read from the data and is not stated in words by the source.

The values that follow come from paper PMC5881533.

For the sequence “ATTGACTAAATAATAAGCTA (double strand) [Seq3]”, where the note is “label: FAM”, the binding result is given as “binds”.

Take “CGGACAACAAAAAATTAAAAAAGGAAAACT (double strand) [Site 3]”: the binding result is “binds”.
